The values that follow come from patent publication US20220023401A1 (priority 2020, published 2022).

This experiment has as its system Aβ1-42. Conditions: guinea pigs, 100 μg/0.5 mL in ISA 51 emulsion; for Aβ1-42 ELISA Log10 Titer, Geomean: group Geomean; for Aβ1-42 ELISA Log10 Titer: individual animals, listed as 57. On the technique in general: In an ELISA, binding on a coated surface is turned into a signal by an enzyme label.

Values joined by “and” are separate entries in the source; they are usually repeats but may differ in a detail not shown here. Equal values may be shown once. Read-outs that look alike come from different tables or passages of the source.

Consider Aβ1-14-ϵK-Cholera Toxin Th, for which the “Aβ1-42 ELISA Log10 Titer, Geomean” value by setting is: (0 wpi) 0.773 Log10; (4 wpi) 4.386 Log10; (6 wpi) 4.921 Log10; (8 wpi) 4.724 Log10. Moreover, the “Aβ1-42 ELISA Log10 Titer” value runs as follows: (0 wpi) 0.836 Log10 and 1.111 Log10 and 0.497 Log10; (4 wpi) 4.218 Log10 and 4.704 Log10 and 4.252 Log10; (6 wpi) 4.735 Log10 and 5.357 Log10 and 4.698 Log10; (8 wpi) 4.287 Log10 and 5.347 Log10 and 4.600 Log10.
